Results of unrelated studies side by side (data: NIAID ChemDB).

Common to all: growth or infection tests

Percent inhibition refers to the dose given; in toxicity tests it is the harm to the cells. An empty or dashed field is not shown. Lines come from different laboratories, so protocols vary. Zone: diameter of growth inhibition. A number after MIC or MFC names an inhibition level or a share of isolates.

{"structure": "Cc1nn(-c2ccccc2)c2c1C(c1cn(-c3ccccc3)nc1-c1ccc(Cl)cc1)C1=C(NC(C)(c3cc(O)c(Cl)c(O)c3)NC1=O)O2", "tested at": "0.5 mg/mL", "endpoint": "zone", "method": "agar diffusion / agar", "agent": "Mycobacterium phlei", "strain or isolate": "NCIM 2240", "value": "4 mm"}
{"structure": "NNC(=S)N/N=C/c1cn(CC2CCC2)c2ccccc12", "endpoint": "MIC100", "method": "broth dilution", "agent": "Mycobacterium bovis BCG", "strain or isolate": "1173P2", "conditions": "24 h", "value": ">500 µg/mL"}
{"structure": "CCOc1cc(Cc2cnc(N)nc2N)cc(OCC)c1-n1cccc1", "endpoint": "MBC", "agent": "Mycobacterium ulcerans", "strain or isolate": "Isolate 842", "value": "0.5 µg/mL"}
{"structure": "Cc1nn(-c2ccccc2)c2c1C(c1cn(-c3ccccc3)nc1-c1ccc(F)cc1)C1=C(NC(C)(c3cc(O)c(Cl)c(O)c3)NC1=O)O2", "tested at": "0.5 mg/mL", "endpoint": "zone", "method": "agar diffusion / agar", "agent": "Mycobacterium smegmatis", "strain or isolate": "NCIM 5138", "value": "7.6 mm"}
{"structure": "CCc1cc(C(N)=S)ccn1", "tested at": "20 µg/mL", "endpoint": "inhibition", "agent": "Mycobacterium avium intracellulare", "strain or isolate": "Serovar 8", "value": "100%"}
{"structure": "O=C(Nc1ccc(Cl)cc1)c1cc(Cl)ccc1OP(=O)(Oc1ccccc1)c1ccccc1", "endpoint": "MIC", "agent": "Mycobacterium kansasii", "strain or isolate": "My 235/80", "conditions": "14 d", "value": "8 µM"}
{"structure": "COc1cc(Cc2cnc(N)nc2N)cc(OC)c1OC", "endpoint": "MIC", "agent": "Mycobacterium ulcerans", "strain or isolate": "Isolate 5155", "value": ">16 µg/mL"}
{"structure": "COc1nc2ccc(Br)cc2cc1[C@@H](c1ccccc1)[C@@](O)(CCN(C)C)c1cccc2ccccc12", "endpoint": "MIC", "method": "resazurin", "mutations": "C330 deletion", "agent": "Mycobacterium aurum", "value": "0.04 µg/mL"}
{"structure": "Cc1nn(-c2ccccc2)c2c1C(c1cn(-c3ccccc3)nc1-c1ccc(F)cc1)C1=C(NC(C)(c3cc(O)cc(O)c3)NC1=O)O2", "tested at": "1 mg/mL", "endpoint": "zone", "method": "agar diffusion / agar", "agent": "Mycobacterium phlei", "strain or isolate": "NCIM 2240", "value": "2.2 mm"}
{"structure": "NC[C@H]1O[C@H](O[C@H]2[C@H](O)[C@@H](O[C@H]3O[C@H](CO)[C@@H](O)[C@H](N)[C@H]3O)[C@H](N)C[C@@H]2N)[C@H](O)[C@@H](O)[C@@H]1O", "endpoint": "MIC", "agent": "Mycobacterium avium complex", "strain or isolate": "isolate C-22 23 25 36 41 33", "value": ">400 µg/mL"}
{"structure": "CN1CC2=C(C(=O)c3ccccc3C2=O)C12C(=O)c1ccccc1C2=O", "tested at": "50 µg/mL", "endpoint": "zone", "method": "agar diffusion", "agent": "Mycobacterium luteus", "value": "8 mm"}
{"structure": "CC1CN(c2c(F)cc3c(=O)c(C(=O)O)cn(C4CC4)c3c2F)CCN1", "endpoint": "MIC99", "agent": "Mycobacterium smegmatis", "strain or isolate": "KD2008 (GYRA G89C)", "value": "1 µg/mL"}
{"structure": "Cc1nn(-c2ccccc2)c2c1C(c1cn(-c3ccccc3)nc1-c1ccc(Cl)cc1)C1=C(NC(C)(c3cc(O)c(I)cc3Cl)NC1=O)O2", "tested at": "0.5 mg/mL", "endpoint": "zone", "method": "agar diffusion / agar", "agent": "Mycobacterium smegmatis", "strain or isolate": "NCIM 5138", "value": "5 mm"}
{"structure": "O=C(Nc1ccc(Cl)cc1)c1cc(Cl)ccc1OP(=O)(OCc1ccccc1)OCc1ccccc1", "endpoint": "MIC", "agent": "Mycobacterium kansasii", "strain or isolate": "My 6509/96", "conditions": "7 d", "value": "16 µM"}
{"structure": "CN1CC2=C(C(=O)c3ccccc3C2=O)C12C(=O)Nc1ccc(Br)cc12", "endpoint": "MIC", "method": "agar diffusion", "agent": "Mycobacterium luteus", "value": "62.5 µg/mL"}
{"structure": "Cc1cc(NS(=O)(=O)c2ccc(NC(=O)C(=O)Nc3ccc(S(=O)(=O)Nc4cc(C)on4)cc3)cc2)no1", "endpoint": "MIC100", "method": "broth dilution / absorbance", "agent": "Mycobacterium kansasii", "strain or isolate": "6509/96 clinical isolate", "conditions": "7 d", "value": "8 µM"}
{"structure": "COc1ccc(-c2nn(-c3ccccc3)cc2C2C3=C(NC(C)(c4cc(O)c(I)cc4Cl)NC3=O)Oc3c2c(C)nn3-c2ccccc2)cc1", "tested at": "0.5 mg/mL", "endpoint": "zone", "method": "agar diffusion / agar", "agent": "Mycobacterium smegmatis", "strain or isolate": "NCIM 5138", "value": "10.8 mm"}
{"structure": "NC1CCN(c2c(F)cc3c(=O)c(C(=O)O)cn(C4CC4)c3c2Cl)C1", "endpoint": "MIC", "agent": "Mycobacterium fortuitum", "strain or isolate": "ATCC 6841", "value": "≤0.03 µg/mL"}
{"structure": "CO[C@@H]1C[C@@H](C[C@H]2CC[C@H](C)[C@H]([C@@H](C)C(=O)O)O2)O[C@]2(O[C@](C)([C@H]3CC[C@@](C)([C@@H]4O[C@@H]([C@H]5O[C@@](O)(CO)[C@H](C)C[C@@H]5C)C[C@@H]4C)O3)C[C@H]2C)[C@@H]1C", "endpoint": "MIC", "method": "resazurin", "agent": "Mycobacterium aurum", "value": "0.16 µg/mL"}
{"structure": "NNC(=O)c1ccncc1", "endpoint": "MIC100", "method": "broth dilution / absorbance", "agent": "Mycobacterium kansasii", "strain or isolate": "6509/96 clinical isolate", "conditions": "14 d", "value": "8 µM"}
{"structure": "COc1c(N2CC(C)NC(C)C2)c(F)cc2c(=O)c(C(=O)O)cn(C3CC3)c12", "endpoint": "MIC99", "agent": "Mycobacterium smegmatis", "strain or isolate": "KD1987 (GYRA A91V)", "value": "0.41 µg/mL"}
{"structure": "CCOc1c(N2CC(C)NC(C)C2)c(F)cc2c(=O)c(C(=O)O)cn(C3CC3)c12", "endpoint": "MIC", "agent": "Mycobacterium fortuitum", "strain or isolate": "ATCC 6841", "value": "0.06 µg/mL"}
{"structure": "C=CCN1C(=O)C2(C3=C(C(=O)c4ccccc4C3=O)C3CCCN32)c2ccccc21", "tested at": "50 µg/mL", "endpoint": "zone", "method": "agar diffusion", "agent": "Mycobacterium luteus", "value": "9 mm"}
{"structure": "CC1CN(c2cc3c(cc2F)c(=O)c(C(=O)O)cn3C2CC2)CC(C)N1", "endpoint": "MIC99", "agent": "Mycobacterium smegmatis", "strain or isolate": "KD1995 (GYRA D95H)", "value": "3.6 µg/mL"}
{"structure": "CC[C@H]1OC(=O)[C@H](C)[C@@H](O[C@H]2C[C@@](C)(OC)[C@@H](O)[C@H](C)O2)[C@H](C)[C@@H](O[C@@H]2O[C@H](C)C[C@H](N(C)C)[C@H]2O)[C@](C)(OC)C[C@@H](C)C(=O)[C@H](C)[C@@H](O)[C@]1(C)O", "endpoint": "MIC", "method": "broth dilution", "agent": "Mycobacterium abscessus", "strain or isolate": "x48", "value": "2 µg/mL"}
{"structure": "O=C(Nc1ccccc1)c1ccccc1OP(=O)(c1ccccc1)c1ccccc1", "endpoint": "MIC", "agent": "Mycobacterium kansasii", "strain or isolate": "My 235/80", "conditions": "14 d", "value": "125 µM"}
{"structure": "CCCCCNC(=O)Nc1ccc(S(=O)(=O)Nc2cc(C)on2)cc1", "endpoint": "MIC100", "method": "broth dilution / absorbance", "agent": "Mycobacterium kansasii", "strain or isolate": "235/80", "conditions": "21 d", "value": "500 µM"}
{"structure": "CCN1CCN(c2c(F)cc3c(=O)c(C(=O)O)cn(C4CC4)c3c2F)CC1", "endpoint": "MIC", "agent": "Mycobacterium fortuitum", "strain or isolate": "ATCC 6841", "value": "0.13 µg/mL"}
{"structure": "Cc1ccc2c(c1)C1(C(=O)N2)C2=C(CN1C)C(=O)c1ccccc1C2=O", "tested at": "50 µg/mL", "endpoint": "zone", "method": "agar diffusion", "agent": "Mycobacterium luteus", "value": "13 mm"}
{"structure": "CCN1CCN(c2c(F)cc3c(=O)c(C(=O)O)cn(C4CC4)c3c2OC)CC1", "endpoint": "MIC99", "agent": "Mycobacterium smegmatis", "strain or isolate": "KD1987 (GYRA A91V)", "value": "0.51 µg/mL"}
{"structure": "COc1c(N2CCNC(C)C2)c(F)cc2c(=O)c(C(=O)O)cn(C3CC3)c12", "endpoint": "MIC", "agent": "Mycobacterium fortuitum", "strain or isolate": "ATCC 6841", "value": "0.06 µg/mL"}
{"structure": "O=C(Nc1ccc(Cl)cc1)c1cc(Cl)ccc1OP(=O)(Oc1ccccc1)Oc1ccccc1", "endpoint": "MIC", "agent": "Mycobacterium kansasii", "strain or isolate": "My 6509/96", "conditions": "14 d", "value": "8 µM"}
{"structure": "O=S(=O)(c1ccccc1)n1cc(/C=N/Nc2nncs2)c2ccccc21", "endpoint": "MIC100", "method": "broth dilution", "agent": "Mycobacterium bovis BCG", "strain or isolate": "1173P2", "conditions": "24 h", "value": "250 µg/mL"}
{"structure": "CCC1CN(c2c(F)cc3c(=O)c(C(=O)O)cn(C4CC4)c3c2OC)CCN1", "endpoint": "MIC99", "agent": "Mycobacterium smegmatis", "strain or isolate": "KD2008 (GYRA G89C)", "value": "0.65 µg/mL"}
{"structure": "CCCCCCCCCCNC(=O)Nc1ccc(S(=O)(=O)Nc2cc(C)on2)cc1", "endpoint": "MIC100", "method": "broth dilution / absorbance", "agent": "Mycobacterium kansasii", "strain or isolate": "235/80", "conditions": "7 d", "value": "125 µM"}
{"structure": "O=C(O)c1cn(C2CC2)c2c(Br)c(N3CCNCC3)c(F)cc2c1=O", "endpoint": "MIC", "agent": "Mycobacterium fortuitum", "strain or isolate": "ATCC 6841", "value": "≤0.03 µg/mL"}
{"structure": "O=C(O)c1cn(C2CC2)c2c(F)c(N3CCNCC3)c(F)cc2c1=O", "endpoint": "MIC99", "agent": "Mycobacterium smegmatis", "strain or isolate": "KD1991 (GYRA D95Y)", "value": "1.6 µg/mL"}
{"structure": "CCNC(=O)Nc1ccc(S(=O)(=O)Nc2cc(C)on2)cc1", "endpoint": "MIC100", "method": "broth dilution / absorbance", "agent": "Mycobacterium kansasii", "strain or isolate": "6509/96 clinical isolate", "conditions": "21 d", "value": "500 µM"}
{"structure": "CCN1C(=O)C2(C3=C(CN2C)C(=O)c2ccccc2C3=O)c2ccccc21", "tested at": "50 µg/mL", "endpoint": "zone", "method": "agar diffusion", "agent": "Mycobacterium luteus", "value": "18 mm"}
{"structure": "CO[C@H]1/C=C/O[C@@]2(C)Oc3c(C)c(O)c4c(O)c(c5c(c4c3C2=O)NC2(CCN(CC(C)C)CC2)N=5)=NC(=O)/C(C)=C\\C=C\\[C@H](C)[C@H](O)[C@@H](C)[C@@H](O)[C@@H](C)[C@H](OC(C)=O)[C@@H]1C", "endpoint": "MIC", "agent": "Mycobacterium avium complex", "strain or isolate": "189-4", "value": "0.5 µg/mL"}
{"structure": "COc1ccc(Cn2cc(/C=N/NC(=S)NN)c3ccccc32)cc1", "endpoint": "MIC100", "method": "broth dilution", "agent": "Mycobacterium bovis BCG", "strain or isolate": "1173P2", "conditions": "48 h", "value": ">500 µg/mL"}
{"structure": "CCC1CN(c2c(F)cc3c(=O)c(C(=O)O)cn(C4CC4)c3c2F)CCN1", "endpoint": "MIC99", "agent": "Mycobacterium smegmatis", "strain or isolate": "KD1995 (GYRA D95H)", "value": "1.2 µg/mL"}
{"structure": "CN(C)c1cc(NC(=O)CNC(C)(C)C)c(O)c2c1C[C@H]1C[C@H]3[C@H](N(C)C)C(=O)C(C(N)=O)=C(O)[C@@]3(O)C(=O)C1=C2O", "endpoint": "MIC", "method": "broth dilution", "agent": "Mycobacterium massiliense", "strain or isolate": "X19", "value": "2 µg/mL"}
{"structure": "COc1c(N2CCNCC2)c(F)cc2c(=O)c(C(=O)O)cn(C3CC3)c12", "endpoint": "MIC99", "agent": "Mycobacterium smegmatis", "strain or isolate": "KD1990 (GYRA D95A)", "value": "0.31 µg/mL"}
{"structure": "Fc1cccc(Cn2cc(/C=N/Nc3nncs3)c3ccccc32)c1", "endpoint": "MIC100", "method": "broth dilution", "agent": "Mycobacterium bovis BCG", "strain or isolate": "1173P2", "conditions": "48 h", "value": "500 µg/mL"}
{"structure": "O=C1c2cc(Cl)ccc2OP(=O)(c2ccccc2)N1c1ccc(C(F)(F)F)cc1", "endpoint": "MIC", "agent": "Mycobacterium kansasii", "strain or isolate": "My 6509/96", "conditions": "7 d", "value": "8 µM"}
{"structure": "COc1c(N2CCC(N)C2)c(F)cc2c(=O)c(C(=O)O)cn(C3CC3)c12", "endpoint": "MIC", "agent": "Mycobacterium fortuitum", "strain or isolate": "ATCC 6841", "value": "0.06 µg/mL"}

4 of the rows above, restated:

| structure | tested at | endpoint | method | mutations | agent | strain or isolate | conditions | value |
|---|---|---|---|---|---|---|---|---|
| O=C(Nc1ccc(Cl)cc1)c1cc(Cl)ccc1OP(=O)(Oc1ccccc1)Oc1ccccc1 | - | MIC | - | - | Mycobacterium kansasii | My 6509/96 | 14 d | 8 µM |
| NNC(=S)N/N=C/c1cn(CC2CCC2)c2ccccc12 | - | MIC100 | broth dilution | - | Mycobacterium bovis BCG | 1173P2 | 24 h | >500 µg/mL |
| O=C(Nc1ccc(Cl)cc1)c1cc(Cl)ccc1OP(=O)(OCc1ccccc1)OCc1ccccc1 | - | MIC | - | - | Mycobacterium kansasii | My 6509/96 | 7 d | 16 µM |
| COc1c(N2CCC(N)C2)c(F)cc2c(=O)c(C(=O)O)cn(C3CC3)c12 | - | MIC | - | - | Mycobacterium fortuitum | ATCC 6841 | - | 0.06 µg/mL |